# Test results reported in patent US10227373B2 (priority 2014, dated 2019).
# Values joined by “and” are separate entries in the source; they are usually repeats but may differ in a detail not shown here. Equal values may be shown once.
# How the values were obtained:
# [1] = system: Ebola virus; set-up: SI90: unit not given beside the values
# [2] = system: human cytomegalovirus; assay type: cell-based; set-up: SI90: unit not given beside the values
smiles,measurement,setting,value
"Nc1nccc2c1ncn2[C@@H]1C[C@@H](CO)[C@H](O)[C@@H]1O [carbocyclic 3-deazaadenosine, reference compound]",SI50 (CC50/EC50),[1],> 100 and > 52
same,SI90,[1],1
"Nc1nc(O)c2ncn(COC(CO)CO)c2n1 [ganciclovir, reference compound]",SI50 (CC50/EC50),[2],> 638
same,SI90,[2],> 326
"Nc1nccc2c1ncn2C1=C[C@H](CO)[C@@H](O)[C@H]1O [“D”-3-Deazaisoneplanocin, D-1′,6′-iso-3-deazaneplanocin]",times less drug concentration than Ganciclovir to reduce viral replication by 50%,[2],4 times
same,times less drug concentration than Ganciclovir to reduce viral replication by 90%,[2],9 times
same,times higher drug concentration than “L”-3-Deazaisoneplanocin to inhibit Ebola replication by 90%,[1],230 times
"Nc1nccc2c1ncn2C1=C[C@@H](CO)[C@H](O)[C@@H]1O [“L”-3-Deazaisoneplanocin, L-1′,6′-iso-3-deazaneplanocin]",times less drug concentration than Ganciclovir to reduce viral replication by 50%,[2],4 times
same,times less drug concentration than Ganciclovir to reduce viral replication by 90%,[2],9 times
